One molecule from ChEMBL document CHEMBL4495565, “Cytopathic SARS-Cov2 screening on VERO-E6 cells in a large repurposing effort” (2020) can be followed below.

The structures appear in SMILES notation.

The test system of the experiment is SARS-CoV-2. Nature of the experiment: microbe, parasite or virus in culture. It counts as functional, organism-based, Chlorocebus sabaeus. To be noted: Severe acute respiratory syndrome coronavirus 2, Vero C1008, 48 h.

The molecule `O=C(O)Cc1cccc(OCCCN(Cc2cccc(C(F)(F)F)c2Cl)CC(c2ccccc2)c2ccccc2)c1` yielded an IC50 of 27.7 µM.

By IC50 is commonly meant the concentration at which inhibition is half-maximal.
